What was measured:
[1] = biological target: T1, PP2-B2/12 (orange1.1t04174) (Citrus sinensis); assay: yeast two-hybrid
T1 chain: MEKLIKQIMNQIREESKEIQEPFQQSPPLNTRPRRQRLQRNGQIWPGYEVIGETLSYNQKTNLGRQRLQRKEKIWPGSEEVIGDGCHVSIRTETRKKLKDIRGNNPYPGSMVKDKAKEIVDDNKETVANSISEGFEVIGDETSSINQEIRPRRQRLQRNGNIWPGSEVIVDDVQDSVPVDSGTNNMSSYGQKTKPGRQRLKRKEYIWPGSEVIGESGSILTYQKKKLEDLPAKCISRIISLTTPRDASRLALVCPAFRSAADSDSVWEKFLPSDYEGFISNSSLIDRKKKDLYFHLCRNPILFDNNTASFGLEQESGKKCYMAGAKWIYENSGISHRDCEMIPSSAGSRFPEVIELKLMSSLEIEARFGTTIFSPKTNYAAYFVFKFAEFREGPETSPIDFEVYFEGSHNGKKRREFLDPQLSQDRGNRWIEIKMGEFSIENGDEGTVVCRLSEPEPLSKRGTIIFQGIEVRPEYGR

[2] = biological target: T2, Red chlorophyll catabolite reductase (Citrus sinensis); assay: yeast two-hybrid
T2 chain: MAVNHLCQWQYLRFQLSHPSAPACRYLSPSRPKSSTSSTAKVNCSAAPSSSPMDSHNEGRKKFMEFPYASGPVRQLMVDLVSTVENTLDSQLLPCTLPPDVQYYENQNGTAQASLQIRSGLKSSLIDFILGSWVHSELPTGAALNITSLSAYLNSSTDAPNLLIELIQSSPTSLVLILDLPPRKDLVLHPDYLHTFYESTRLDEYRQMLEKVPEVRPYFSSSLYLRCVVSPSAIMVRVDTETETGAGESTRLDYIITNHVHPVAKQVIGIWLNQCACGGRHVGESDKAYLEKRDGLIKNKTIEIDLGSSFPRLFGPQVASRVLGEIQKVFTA

B1:  (other)
chain: DTLSDSKQHNKINNTKNHLDLLFPIDDSHNQKPTEKKPNTSSIKIKNNIIEPQPGPSRWEGGWNGERYVREWER
B1: binds [1]; binds [2].
